Anti-infective test results gathered from many reports (values: NIAID ChemDB through PubChem).

Common to all: tests in culture; agent: Cryptococcus neoformans; read-out: MIC

Rows are shuffled and stem from different studies. Two numbers with a dash give a range or band.

{"SMILES": "C[C@@H](N1CCN(c2ccc(-n3cnnn3)cc2)C1=O)[C@@](O)(Cn1cncn1)c1ccc(F)cc1F", "strain": "TIMM1740", "value": ">16 µg/mL"}
{"SMILES": "COc1ccc(C(=O)CC(=O)c2ccc3c(ccn3C)c2OC)cc1", "value": "25 µg/mL"}
{"SMILES": "Cc1onc(-c2nn(C)c(C)c2[N+](=O)[O-])c1[N+](=O)[O-]", "value": ">200 µM"}
{"SMILES": "Nc1[nH]c(=O)ncc1F", "strain": "H59", "value": "8 µg/mL"}
{"SMILES": "COc1ccc(C(=O)CC(=O)c2ccc3sccc3c2OC)cc1", "value": "6.25 µg/mL"}
{"SMILES": "CC1(C)O[C@H]2O[C@H](C3=NOC(Cc4ccc(O)cc4)C3)[C@H](OCc3ccccc3)[C@H]2O1", "value": "12.5 µg/mL"}
{"SMILES": "CO[C@H]1[C@@H](O)[C@H](O)[C@H](OC[C@@]23C[C@@H]4[C@H](C)CC[C@H]4[C@@]4(C=O)C[C@@H]2C=C(C(C)C)[C@@]34C(=O)O)O[C@@H]1C", "strain": "2867E", "value": ">125 µg/mL"}
{"SMILES": "COc1cc(O)c2c(c1)C(=O)c1c(cc3c(c1O)-c1c(cc(C)c(C(=O)NC(C)C(=O)O)c1O)[C@H](OC1OC(C)C(N(C)C=O)C(OC4OCC(O)C(O)C4O)C1O)[C@H]3O)C2=O", "strain": "IAM 4514", "value": "6.3 µg/mL"}
{"SMILES": "C[C@H]1[C@H](O)[C@@H](C)/C=C/C=C/C=C/C=C/C=C/C=C/C=C/[C@H](O[C@@H]2O[C@H](C)[C@@H](O)[C@H](N)[C@@H]2O)C[C@@H]2O[C@](O)(C[C@@H](O)C[C@@H](O)CC[C@H](O)[C@@H](O)C[C@@H](O)CC(=O)O[C@H]1C)C[C@H](O)[C@H]2C(=O)O", "strain": "IAM 4514", "value": "0.2 µg/mL"}
{"SMILES": "CCCCCCCCCOC[C@H](OC)C(=O)O", "strain": "ATCC66031", "value": "180 µM"}
{"SMILES": "COc1cc(O)c2c(c1)C(=O)c1c(cc3c(c1O)-c1c(cc(C)c(C(=O)NC(C)C(=O)O)c1O)[C@H](OC1OC(C)C(N(C)C(=O)CCC(=O)O)C(OC4OCC(O)C(O)C4O)C1O)[C@H]3O)C2=O", "strain": "IAM 4514", "value": ">100 µg/mL"}
{"SMILES": "CO[C@@H]1[C@H]2OC(C)(C)O[C@H]2O[C@@H]1C1=NOC(CO)C1", "value": ">50 µg/mL"}
{"SMILES": "COc1cc(O)c2c(c1)C(=O)c1c(cc3c(c1O)-c1c(cc(C)c(C(=O)NC(C)C(=O)O)c1O)[C@H](OC1OC(C)C(N(C)C(=O)CCN)C(OC4OCC(O)C(O)C4O)C1O)[C@H]3O)C2=O", "strain": "IAM 4514", "value": "3.1 µg/mL"}
{"SMILES": "Cc1nn(-c2ccccc2)c2nsc(N)c12", "value": "4–16 µg/mL"}
{"SMILES": "Cc1cc(-c2c(N=O)c(C)nn2C)no1", "value": "0.8 µM"}
{"SMILES": "CCCCCCCCCCCCCC(=O)O", "strain": "ATCC66031", "value": "1900 µM"}
{"SMILES": "CCC(C)CC(C)CCCCCCCCC(=O)N[C@H]1C[C@@H](O)[C@H](NCCN)NC(=O)[C@@H]2[C@@H](O)CCN2C(=O)[C@H]([C@H](O)CCN)NC(=O)[C@H]([C@H](O)[C@@H](O)c2ccc(O)cc2)NC(=O)[C@@H]2C[C@@H](O)CN2C(=O)[C@H]([C@@H](C)O)NC1=O", "value": "16 µg/mL"}
{"SMILES": "CC[C@@H]1[C@@H](Cn2cncn2)[C@H](COc2ccc(OC(F)(F)F)cc2)CC[C@@]1(C)CCSc1nccn1C", "strain": "CY1057", "value": "0.9 µg/mL"}
{"SMILES": "CCCn1nc(C)c(N=O)c1-c1cc(C)on1", "value": "0.8 µM"}
{"SMILES": "CC[C@@]1(O)C[C@H](O[C@H]2C[C@H](N(C)C)[C@H](O[C@H]3C[C@H](O)[C@H](O[C@H]4CCC(=O)[C@H](C)O4)[C@H](C)O3)[C@H](C)O2)c2c(cc3c(c2O)C(=O)c2c(O)cccc2C3=O)[C@H]1C(=O)OC", "strain": "N-2", "value": "0.8 µg/mL"}
{"SMILES": "O=C(/C=C/c1ccccc1)c1ccc2sccc2c1O", "value": "25 µg/mL"}
{"SMILES": "CN[C@@H]1[C@H](O[C@@H]2OC[C@@H](O)[C@H](O)[C@H]2O)[C@@H](O)[C@H](O[C@H]2c3cc(C)c(C(=O)N[C@H](C)C(=O)O)c(O)c3-c3c(cc4c(c3O)C(=O)c3cc(OC)cc(O)c3C4=O)[C@@H]2O)O[C@@H]1C", "strain": "IAM 4514", "value": "1.6 µg/mL"}
{"SMILES": "CO[C@@H]1[C@H]2OC(C)(C)O[C@H]2O[C@@H]1C1=NOC(OC(C)=O)C1", "value": "25 µg/mL"}
{"SMILES": "COC(=O)C1CCc2sccc2C1=O", "value": "50 µg/mL"}
{"SMILES": "CC1(C)O[C@H]2O[C@H](C3=NOC(C#N)C3)[C@H](OCc3ccccc3)[C@H]2O1", "value": "25 µg/mL"}
{"SMILES": "COc1cc(O)c2c(c1)C(=O)c1c(cc3c(c1O)-c1c(cc(C)c(C(=O)NC(C)C(=O)O)c1O)[C@H](OC1OC(C)C(N(CC(=O)O)CC(=O)O)C(OC4OCC(O)C(O)C4O)C1O)[C@H]3O)C2=O", "strain": "IAM 4514", "value": ">100 µg/mL"}
{"SMILES": "CCOC1CC([C@H]2O[C@@H]3OC(C)(C)O[C@@H]3[C@H]2OC)=NO1", "value": "25 µg/mL"}
{"SMILES": "CCC(C)n1ncn(-c2ccc(N3CCN(c4ccc(OC[C@H]5CO[C@](Cn6cncn6)(c6ccc(Cl)cc6Cl)O5)cc4)CC3)cc2)c1=O", "strain": "DUMC136.89", "value": "0.008 µg/mL"}
{"SMILES": "C[C@@H](c1ncncc1F)[C@](O)(Cn1cncn1)c1ccc(F)cc1F", "strain": "H99", "value": "0.03 µg/mL"}
{"SMILES": "Clc1ccc(COC(Cn2ccnc2)c2ccc(Cl)cc2Cl)c(Cl)c1", "value": "0.9 µM"}
{"SMILES": "COc1ccc(CC2CC([C@H]3O[C@@H]4OC(C)(C)O[C@@H]4[C@H]3OCc3ccccc3)=NO2)cc1", "value": "25 µg/mL"}
{"SMILES": "COc1cc(O)c2c(c1)C(=O)c1c(cc3c(c1O)-c1c(cc(C)c(C(=O)NC(C)C(=O)O)c1O)[C@H](OC1OC(C)C(N(C)C(=O)c4ccccc4)C(OC4OCC(O)C(O)C4O)C1O)[C@H]3O)C2=O", "strain": "IAM 4514", "value": ">100 µg/mL"}
{"SMILES": "Cc1cc(-c2cc(C)on2)n(C)n1", "value": ">200 µM"}
{"SMILES": "CCOC(=O)C1CC([C@H]2O[C@@H]3OC(C)(C)O[C@@H]3[C@H]2OC)=NO1", "value": "25 µg/mL"}